The values that follow come from publication PMC13183915, “A platinum butterfly effect: small changes turn an anticancer drug into a non-toxic metalloantibiotic with in vivo efficacy” (npj Antimicrobials and Resistance, 2026).

The subject of the series is MRSA. Description: Antibiotic uptake assay (ICP-MS of cellular Pt). The class given is cell-based, S. aureus.

As to `C1=C\CC/C=C\CC/1.[Cl][Pt][Cl]` [Pt1], for the setting “60 min treatment, 1.56 µM Pt1, 6.25 µM Pt8, 100 µM CisPt”, the “Percent Pt content of MRSA cell lysate (% Pt)” value is listed as 1.5 ± 0.3%. Further, the “absolute amounts of platinum in bacteria after treatment” value (MRSA, 1.56 µM Pt1, 6.25 µM Pt8, 100 µM CisPt) is recorded as 3.5 µg/L. In addition, under “fold more efficient than CisPt”, the “uptake efficiency relative to CisPt” value amounted to 50 x. Besides, the “uptake efficiency relative to Pt8” value (fold more efficient than Pt8) is 3 x.
